Data on 3 substances can be found in article PMC7112612 (The Journal of Infection, 2013).

In data set [1] the test system is MERS-CoV. It counts as cell-based.
The subject of data set [2] is MERS-CoV. It counts as cell-based. This is another data set of the same source.
The subject of data set [3] is MERS-CoV. It counts as cell-based. This is another data set of the same source.

Where only a bound is given, the exact number is not on record here.

Turning to Rebif, the “anti-MERS-CoV activity at the tested concentrations (in words)” value (“anti-MERS-CoV activity” for short) in the data set with MERS-CoV [1] is recorded as “showed anti-MERS-CoV activity”. Besides, in the data set with MERS-CoV [2], the “concentration achieving 100% plaque reduction” value is listed as 62,500 IU/ml. In the data set with MERS-CoV [3], the EC50 worked out at 480.54 ± 183.85 IU/ml, the EC90 amounted to 2473.86 ± 576.35 IU/ml, the EC99 is on record as 3599.06 ± 778.81 IU/ml and the “reduction in viral load” value is reported as over 2 log. Besides, in the data set on Vero cells, the CC50 was 15,625 IU/ml.
For the substance Avonex, the “anti-MERS-CoV activity” value with MERS-CoV [1] is “showed anti-MERS-CoV activity”. Also, the “maximum percentage of plaque reduction” value in the data set with MERS-CoV [2] stood at 70.2%. In the data set on MERS-CoV [3], the EC50 stood at 5073.33 ± 7333.86 IU/ml and the EC99 is recorded as 708919.75 ± 840503.36 IU/ml. Further, in the data set with Vero cells, the CC50 is listed as >75,000 IU/ml.
As for Intron A, the “anti-MERS-CoV activity” value with MERS-CoV [1] was “showed anti-MERS-CoV activity”. For the same substance, the “maximum percentage of plaque reduction” value in the data set on MERS-CoV [2] came to 76.2%. Also, in the data set with MERS-CoV [3], the EC50 came out at 6709.79 ± 1747.97 IU/ml and the EC99 is listed as 371242.78 ± 255482.32 IU/ml. For the same substance, the CC50 in the data set on Vero cells is given as >75,000 IU/ml.
